Here are results for three molecules from patent publication US8062607B2, “Lens care methods and kits” (Novartis AG, priority 2006, dated 2011).

Some compounds share one wording; it may come from a single statement.

The data set in a line: Staining of contact lenses soaked in dye solutions. The note with it: all tested lenses; dye solution in Aquify MPS or PBS.
For the molecule `CCN(Cc1cccc(S(=O)(=O)[O-])c1)c1ccc(C(=C2C=CC(=[N+](CC)Cc3cccc(S(=O)(=O)[O-])c3)C=C2)c2ccccc2S(=O)(=O)[O-])cc1.[Na+].[Na+]` [FD&C Blue No 1], the staining of lenses entry is recorded as “do not stain any tested lenses”. The same measure for `Nc1c(S(=O)(=O)[O-])cc(NC2CCCCC2)c2c1C(=O)c1ccccc1C2=O.[Na+]` [Acid Blue 62]: “stain all tested lenses”. The same measure for `Nc1c(S(=O)(=O)[O-])cc(Nc2cccc(S(=O)(=O)CCOS(=O)(=O)[O-])c2)c2c1C(=O)c1ccccc1C2=O.[Na+].[Na+]` [Remazol Brilliant Blue]: “do not stain any tested lenses”.
